According to patent US20230272050A1, “BINDING PROTEIN SPECIFIC FOR THE SPIKE PROTEIN OF SEVERE ACUTE RESPIRATORY SYNDROME CORONA VIRUS 2 (SARS-COV-2)” (priority 2020, published 2023):

Target: SARS-CoV-2 S protein RBD (E484Q, L452R) (Severe acute respiratory syndrome coronavirus 2, E484Q/L452R)

B1: 212896 (protein)
chain: AVLDIDQHAATEEIWWLPNLTKQQKVWFIMSLTQDPSVSLEILAEAKKLNDAQAPKIAAQHDKIQQAADKEILHLPNLTEEQRNKFRQSLRDDPSVSAEILAEAKKLNDAQAPKIAAQHDKIQQAADKEILHLPNLTEEQRNKFRQSLRDDPSVSAEILAEAKKLNDAQAPKIAAQHDKIQQAADKEILHLPNLTEEQRNKFRQSLRDDPSVSAEILAEAKKLNDAQAPKC
Q: How did the “binding affinity to RBD (E484Q, L452R) (B.1.617.1), qualitative” value turn out when B1 was run?
A: showed binding affinity
